# System: P388 Lymphatic Leukemia
# Test: Antitumor activity against P388 Lymphatic Leukemia in Mice
# Details: Q4D × 2, values ≥125 considered active
substance,measurement,setting,value
12'-hydroxyverrucarin J,T/C percent MST,"test - 1, 1.25 mg/kg",125%
same,T/C percent MST,"test - 1, 2.50 mg/kg",122%
same,T/C percent MST,"test - 2, 0.31 mg/kg",116%
same,T/C percent MST,"test - 2, 0.63 mg/kg",123%
same,T/C percent MST,"test - 2, 1.25 mg/kg",129%
same,T/C percent MST,"test - 2, 2.50 mg/kg",129%

# Reference: patent US4436750A, “12'-Hydroxyverrucarin J and iso-satratoxin H” (dated 1984)
